Results of unrelated studies side by side (data: NIAID ChemDB).

Shared fields: whole-cell or culture tests

A number after MIC or MFC names an inhibition level or a share of isolates. Inhibition is in % at the dose shown (toxicity tests: loss of growth or viability). Blank or dashed fields: not listed here. Rows are shuffled and stem from different studies. ECn is the concentration giving n% inhibition of infection, replication or growth.

{"structure": "O=c1[nH]cnc2c1ncn2CCOCP(=O)(O)O", "agent": "Cytomegalovirus", "strain or isolate": "AD169", "cell line": "HEL", "method": "plaque count", "measure": "EC50", "result": "200 µg/mL"}
{"structure": "CCOC1c2cc(OC)c(OC)cc2-c2ccc3cc4c(cc3c2N1C)OCO4", "agent": "Saccharomyces cerevisiae", "strain or isolate": "Mutant ΔERG6", "measure": "MIC", "result": "1.56 µg/mL"}
{"structure": "O=c1ccn(CC(CO)OCP(=O)(O)O)c(=O)[nH]1", "agent": "Cytomegalovirus", "strain or isolate": "AD169", "cell line": "HEL", "method": "plaque count", "measure": "EC50", "result": "20 µg/mL"}
{"structure": "Oc1c(O)c(Cl)c(Cl)c(Cl)c1Cl", "agent": "Saccharomyces cerevisiae", "strain or isolate": "288C", "measure": "MIC", "result": "50 µg/mL"}
{"structure": "O=c1c(O)c(-c2ccc(O)c(O)c2)oc2cc(O)cc(O)c12", "agent": "Rotavirus A", "strain or isolate": "SA-11", "cell line": "VERO", "measure": "EC50", "result": "<60 µg/mL"}
{"structure": "N#CC[C@H](C1CCCC1)n1cc(-c2ncnc3[nH]ccc23)cn1", "agent": "SHIV", "cell line": "Macrophage", "method": "p24 / ELISA", "measure": "EC90", "result": "4.2 µM"}
{"structure": "Nc1ccn([C@@H]2CS[C@H](CO)O2)c(=O)n1", "agent": "Duck hepatitis B virus", "strain or isolate": "WILD TYPE", "cell line": "HepG2", "measure": "EC50", "result": "0.033 µM"}
{"structure": "Cc1cn([C@H]2C[C@H](N=[N+]=[N-])[C@@H](CO)O2)c(=O)[nH]c1=O", "agent": "SHIV", "cell line": "PBMC", "method": "p24 / ELISA", "measure": "EC50", "result": "0.002 µM"}
{"structure": "Nc1nc2c(ncn2CCOCP(=O)(O)O)c(=O)[nH]1", "agent": "Cytomegalovirus", "strain or isolate": "AD169", "cell line": "HEL", "method": "cytopathic effect", "measure": "EC50", "result": "0.7 µg/mL"}
{"structure": "CCC(=O)CCCCC[C@@H]1NC(=O)[C@H]2CCCCN2C(=O)[C@H](C(C)CC)NC(=O)[C@H](Cc2cn(OC)c3ccccc23)NC1=O", "agent": "Toxoplasma gondii", "measure": "MIC", "result": "0.008 µg/mL"}
{"structure": "N=C(N)c1ccc(OCc2ccc(COc3ccc(C(=N)N)cc3)cc2)cc1", "agent": "Pneumocystis carinii", "cell line": "A549", "measure": "EC50", "result": "0.786 µg/mL"}
{"structure": "NC(=O)c1ncn([C@@H]2O[C@H](CO)[C@@H](O)[C@H]2O)n1", "agent": "Respiratory syncytial virus", "strain or isolate": "LONG", "cell line": "HEP-2", "method": "plaque count", "measure": "inhibition", "dose": "32 µg/mL", "result": "10%"}
{"structure": "CCc1c2c(nc3ccc(O)cc13)-c1cc3c(c(=O)n1C2)COC(=O)[C@@]3(CC)OC(=O)CN", "agent": "Saccharomyces cerevisiae", "strain or isolate": "Mutant ΔERG6", "measure": "MIC", "result": ">100 µg/mL"}
{"structure": "COc1ccc(-c2cc(=O)c3c(O)cc(O)cc3o2)cc1", "agent": "Bovine herpesvirus 1", "cell line": "VERO", "measure": "EC50", "result": ">20 µg/mL"}
{"structure": "CO[C@H]1/C=C/O[C@@]2(C)Oc3c(C)c(O)c4c(O)c(c5c(c4c3C2=O)NC2(CCN(CC(C)C)CC2)N=5)=NC(=O)/C(C)=C\\C=C\\[C@H](C)[C@H](O)[C@@H](C)[C@@H](O)[C@@H](C)[C@H](OC(C)=O)[C@@H]1C", "agent": "Staphylococcus aureus", "strain or isolate": "Newman", "measure": "MIC", "result": "0.0078 µg/mL"}
{"structure": "Cc1cn(C[C@@H](CO)OCP(=O)(O)O)c(=O)[nH]c1=O", "agent": "Cytomegalovirus", "strain or isolate": "DAVIS", "cell line": "HEL", "method": "cytopathic effect", "measure": "EC50", "result": "400 µg/mL"}
{"structure": "CC[C@@]1(OC(=O)CN)C(=O)OCc2c1cc1n(c2=O)Cc2cc3c(N)c4c(cc3nc2-1)OCO4", "agent": "Saccharomyces cerevisiae", "strain or isolate": "Mutant ΔERG6 ΔTOP1", "measure": "MIC", "result": ">100 µg/mL"}
{"structure": "C#CC[C@@H](C(=O)N[C@H](/C=C/C(=O)OCC)C[C@@H]1CCNC1=O)n1cccc(NC(=O)c2cc(C)on2)c1=O", "agent": "Rhinovirus", "strain or isolate": "Serotype 86", "cell line": "H1-HELA", "method": "cytopathic effect / XTT", "measure": "EC50", "result": "0.071 µM"}
{"structure": "OC[C@H]1O[C@@H]2O[C@H]3[C@H](O)[C@@H](O)[C@@H](O[C@H]4[C@H](O)[C@@H](O)[C@@H](O[C@H]5[C@H](O)[C@@H](O)[C@@H](O[C@H]6[C@H](O)[C@@H](O)[C@@H](O[C@H]7[C@H](O)[C@@H](O)[C@@H](O[C@H]8[C@H](O)[C@@H](O)[C@@H](O[C@H]1[C@H](O)[C@H]2O)O[C@@H]8CO)O[C@@H]7CO)O[C@@H]6CO)O[C@@H]5CO)O[C@@H]4CO)O[C@@H]3CO", "agent": "Measles virus", "strain or isolate": "CAM/RB", "cell line": "VERO", "method": "plaque count", "measure": "EC50", "result": ">2560 µM"}
{"structure": "COc1cc2oc(=O)ccc2cc1CC(O)C(C)(C)O", "agent": "Pseudomonas aeruginosa", "measure": "MIC", "result": "125 µg/mL"}
{"structure": "Nc1nc(=O)n([C@@H]2CS[C@H](CO)O2)cc1F", "agent": "Duck hepatitis B virus", "strain or isolate": "WILD TYPE", "cell line": "LMH", "measure": "EC50", "result": "10.5 µM"}
{"structure": "CO[C@H]1/C=C/O[C@@]2(C)Oc3c(C)c(O)c4c(=O)c(c5oc6cc(N7CCN(CC(C)C)CC7)cc(=O)c6nc5c4c3=C2O)NC(=O)/C(C)=C\\C=C\\[C@H](C)[C@H](O)[C@@H](C)[C@@H](O)[C@@H](C)[C@H](OC(C)=O)[C@@H]1C", "agent": "Staphylococcus aureus", "strain or isolate": "16 strains (methicillin- quinolone-resistant)", "measure": "MIC90", "result": "0.0625 µg/mL"}
{"structure": "O=C(O)c1cc2oc3ccccc3c2cc1O", "agent": "Rhinovirus", "strain or isolate": "TYPE 16", "cell line": "HELA-H1", "method": "cytopathic effect", "measure": "EC50", "result": "25 µM"}
{"structure": "CCCCNC(=O)n1c(NC(=O)OC)nc2ccccc21", "agent": "Cryptococcus neoformans", "strain or isolate": "IU4", "measure": "EC50", "result": "<3.7 µg/mL"}
{"structure": "CCCCN=C(N)c1ccc(N2CCCN(c3ccc(C(N)=NCCCC)cc3)CC2)cc1", "agent": "Pneumocystis carinii", "cell line": "A549", "measure": "EC50", "result": "0.186 µg/mL"}
{"structure": "O=c1[nH]cnc2c1ncn2C[C@@H](CO)OCP(=O)(O)O", "agent": "Cytomegalovirus", "strain or isolate": "AD169", "cell line": "HEL", "method": "plaque count", "measure": "EC50", "result": "100 µg/mL"}
{"structure": "S=c1nc[nH]c2c1ncn2C1CCCO1", "agent": "Dengue virus", "strain or isolate": "TYPE 2", "cell line": "LLC-MK2", "method": "plaque count", "measure": "inhibition", "dose": "10 µM", "result": "29%"}
{"structure": "CC[C@@]1(OC(=O)CN)C(=O)OCc2c1cc1n(c2=O)Cc2cc3cc(O)ccc3nc2-1", "agent": "Saccharomyces cerevisiae", "strain or isolate": "JHY6-1C", "measure": "MIC", "result": ">100 µg/mL"}
{"structure": "O=[N+]([O-])c1ccc(N2CCN(c3ccc([N+](=O)[O-])cc3)CC2)cc1", "agent": "Pneumocystis carinii", "cell line": "A549", "measure": "EC50", "result": "34.1 µg/mL"}
{"structure": "CN(C)c1cc(NC(=O)CNC(C)(C)C)c(O)c2c1C[C@H]1C[C@H]3[C@H](N(C)C)C(=O)C(C(N)=O)=C(O)[C@@]3(O)C(=O)C1=C2O", "agent": "Mycobacterium abscessus", "strain or isolate": "AC1", "method": "broth dilution", "measure": "MIC", "result": "1 µg/mL"}
{"structure": "O=S(=O)(F)Cc1ccccc1", "agent": "Cryptosporidium parvum", "measure": "inhibition", "dose": "3000 µM", "result": "60%"}
{"structure": "CN(C)[C@@H]1C(=O)C(C(N)=O)=C(O)[C@@]2(O)C(=O)C3=C(O)c4c(O)c(NC(=O)CN5CCOCC5)cc(F)c4C[C@H]3C[C@@H]12", "agent": "Pseudomonas aeruginosa", "strain or isolate": "111-27853", "method": "agar diffusion", "measure": "MIC", "result": ">32 µg/mL"}
{"structure": "COC(=O)Nc1nc2ccc(C(=O)c3cccs3)cc2[nH]1", "agent": "Cryptococcus neoformans", "strain or isolate": "ATCC 14116", "measure": "EC90", "result": "0.29 µg/mL"}
{"structure": "O=C(O)P(=O)(O)O", "agent": "Cytomegalovirus", "strain or isolate": "AD169", "cell line": "HEL", "method": "cytopathic effect", "measure": "EC50", "result": "20 µg/mL"}
{"structure": "O=C(Nc1ccccc1)c1c(O)[nH]c(=S)[nH]c1=O", "agent": "Epstein-Barr virus", "cell line": "P3HR-1", "method": "PCR", "measure": "EC50", "result": "32.15 µM"}
{"structure": "CCO/N=C/c1ccc(OCCC2CCN(c3ccc(C)nn3)CC2)cc1", "agent": "Rhinovirus", "strain or isolate": "1857-CV51 (ICAM-1 receptor group 67)", "cell line": "KB", "method": "neutral red", "measure": "EC50", "result": "0.016 µM"}
{"structure": "Nc1ncnc2c1ncn2[C@H]1C[C@H](F)[C@@H](CO)O1", "agent": "Pichinde virus", "cell line": "VERO", "method": "plaque count", "measure": "EC50", "result": ">32 µM"}
{"structure": "CCCCCCN(CC1=C(O)c2ccccc2C(=O)C1=O)Cc1ccccc1", "agent": "Toxoplasma gondii", "strain or isolate": "ATO", "measure": "EC50", "result": "1.4 µM"}
{"structure": "C(=C1/CCCN(c2ccc(C3=NCCN3)cc2)C1)/c1ccc(C2=NCCN2)cc1", "agent": "Pneumocystis carinii", "cell line": "A549", "measure": "EC50", "result": "1.25 µg/mL"}
{"structure": "NC(=O)c1ncn([C@@H]2O[C@H](CO)[C@@H](O)[C@H]2O)n1", "agent": "Pichinde virus", "cell line": "VERO 76", "method": "antigen", "measure": "inhibition", "dose": "3.2 µg/mL", "result": "43%"}
{"structure": "CC[C@H]1OC(=O)[C@H](C)[C@@H](O[C@H]2C[C@@](C)(OC)[C@@H](O)[C@H](C)O2)[C@H](C)[C@@H](O[C@@H]2O[C@H](C)C[C@H](N(C)C)[C@H]2O)[C@](C)(OC)C[C@@H](C)C(=O)[C@H](C)[C@@H](O)[C@]1(C)O", "agent": "Mycobacterium abscessus", "strain or isolate": "x48", "method": "broth dilution", "measure": "MIC", "result": "2 µg/mL"}
{"structure": "Nc1nc(N)c2ncn(CCOCP(=O)(O)O)c2n1", "agent": "Cytomegalovirus", "strain or isolate": "DAVIS", "cell line": "HEL", "method": "cytopathic effect", "measure": "EC50", "result": "20 µg/mL"}
{"structure": "CC1NC(=O)C(C)NC(=O)C2CCCN2C(=O)C(CCCCCC(=O)CCO)NC1=O", "agent": "Toxoplasma gondii", "measure": "MIC", "result": ">1 µg/mL"}
{"structure": "OC[C@H]1O[C@@H]2O[C@H]3[C@H](O)[C@@H](O)[C@@H](O[C@H]4[C@H](O)[C@@H](O)[C@@H](O[C@H]5[C@H](O)[C@@H](O)[C@@H](O[C@H]6[C@H](O)[C@@H](O)[C@@H](O[C@H]7[C@H](O)[C@@H](O)[C@@H](O[C@H]1[C@H](O)[C@H]2O)O[C@@H]7CO)O[C@@H]6CO)O[C@@H]5CO)O[C@@H]4CO)O[C@@H]3CO", "agent": "Measles virus", "strain or isolate": "CAM/RB", "cell line": "VERO", "method": "plaque count", "measure": "EC50", "result": ">2560 µM"}
{"structure": "NC(=O)c1c[se]c([C@@H]2O[C@H](CO)[C@@H](O)[C@H]2O)n1", "agent": "Pichinde virus", "strain or isolate": "COAN3739", "cell line": "VERO", "method": "cytopathic effect", "measure": "EC50", "result": "4 µg/mL"}
{"structure": "CC[C@@]1(O)C(=O)OCc2c1cc1n(c2=O)Cc2c-1nc1cc3c(cc1c2CCl)OCO3", "agent": "Saccharomyces cerevisiae", "strain or isolate": "Mutant ΔERG6 ΔTOP1", "measure": "MIC", "result": ">100 µg/mL"}
{"structure": "CN=C(N)c1ccc(N2CCN(c3ccc(C(N)=NC)cc3)CC2)cc1", "agent": "Pneumocystis carinii", "cell line": "A549", "measure": "EC50", "result": "2.5 µg/mL"}
{"structure": "Nc1ncnc2c1ncn2CCOCP(=O)(O)O", "agent": "Duck hepatitis B virus", "cell line": "Primary duck hepatocytes", "method": "hybridisation", "measure": "EC50", "result": "0.14 µM"}
{"structure": "C[C@@H]1[C@H](O)[C@@H](C)/C=C/C=C/CC/C=C/C=C/C=C/C=C/C(O[C@H]2O[C@H](C)[C@@H](O)[C@H](N)[C@@H]2O)CC2O[C@](O)(CC(O)C(O)CCC(O)CC(O)CC(O)CC(=O)O[C@H]1C)CC(O)C2C(=O)O", "agent": "Candida krusei", "strain or isolate": "ATCC 40147", "method": "broth dilution", "measure": "MIC100", "result": "64 µg/mL"}
{"structure": "Nc1nc(N)c2ncn(C[C@@H](CO)OCP(=O)(O)O)c2n1", "agent": "Duck hepatitis B virus", "cell line": "Primary duck hepatocytes", "method": "hybridisation", "measure": "EC50", "result": "0.06 µM"}
{"structure": "CC[C@@]1(O)C(=O)OCc2c1cc1n(c2=O)Cc2cc3c(N)cccc3nc2-1", "agent": "Saccharomyces cerevisiae", "strain or isolate": "Mutant ΔERG6", "measure": "MIC", "result": ">100 µg/mL"}

7 of the rows above, restated:

structure | agent | strain or isolate | cell line | method | measure | dose | result
Nc1nc2c(ncn2CCOCP(=O)(O)O)c(=O)[nH]1 | Cytomegalovirus | AD169 | HEL | cytopathic effect | EC50 | - | 0.7 µg/mL
C#CC[C@@H](C(=O)N[C@H](/C=C/C(=O)OCC)C[C@@H]1CCNC1=O)n1cccc(NC(=O)c2cc(C)on2)c1=O | Rhinovirus | Serotype 86 | H1-HELA | cytopathic effect / XTT | EC50 | - | 0.071 µM
CN=C(N)c1ccc(N2CCN(c3ccc(C(N)=NC)cc3)CC2)cc1 | Pneumocystis carinii | - | A549 | - | EC50 | - | 2.5 µg/mL
O=C(O)P(=O)(O)O | Cytomegalovirus | AD169 | HEL | cytopathic effect | EC50 | - | 20 µg/mL
COC(=O)Nc1nc2ccc(C(=O)c3cccs3)cc2[nH]1 | Cryptococcus neoformans | ATCC 14116 | - | - | EC90 | - | 0.29 µg/mL
CCO/N=C/c1ccc(OCCC2CCN(c3ccc(C)nn3)CC2)cc1 | Rhinovirus | 1857-CV51 (ICAM-1 receptor group 67) | KB | neutral red | EC50 | - | 0.016 µM
COc1ccc(-c2cc(=O)c3c(O)cc(O)cc3o2)cc1 | Bovine herpesvirus 1 | - | VERO | - | EC50 | - | >20 µg/mL